Earlier results as cited in patent publication US20090088378A1, “LONG LASTING INHIBITORS OF VIRAL INFECTION” (priority 2007, published 2009).

System: NL4-3 (G36D mutation in gp41)
Settings: in vitro; cited from earlier work

## enfuvirtide
  resistance to T-20 conferred by DIV (G36D) mutation in gp41: 8 fold
